Source: patent publication US7736911B2, “Activity-based probes for protein tyrosine phosphatases” (Albert Einstein College of Medicine of Yeshiva University, priority 2004, dated 2010)

Legend:
[1] = tested on: YopH site-directed mutants (C403S, D356A, D356N, R409A, R409K); assay: Covalent labeling of wild-type and mutant YopH; details: wild-type YopH pretreated, alkylates Cys403
YopH = YopH (Yersinia enterocolitica, UniProt P15273, C235R/P163M); assay: Kinetic characterization of YopH inactivation by BBP-based probes (pNPP substrate); details: saturation kinetics, 25° C., pH 6

| Substance | effect of pretreatment of YopH on incorporation of I [1] | inactivation rate constant ki (YopH) |
| --- | --- | --- |
| iodoacetate | blocked the incorporation of I into YopH | – |
| α-bromobenzylphosphonate | – | 0.11 min⁻¹ |
